For orientation: inhibition means the drop in the measured response relative to a control, in per cent.

Data on 1 compound can be found in PubChem BioAssay AID1063 (University of Pittsburgh Molecular Library Screening Center, 2008).

The structures appear in SMILES notation. Only a part is listed here, and it is no random draw. Calls of active or inactive are those of the source. No stated cut-off is given here; in the data, active means inhibition above about 50%; inactive means the rest.

This assay can be described thus: antileishmanial activity against promastigotes – primary screen (AID 1063).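 Further: promastigotes grown with compound for 44 hours at 28 °C.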 The conditions noted are these: Leishmania major promastigotes, resazurin fluorescence viability; at 10 µM; hits give high values. In general terms: Alamar Blue is a resazurin reagent that responds to reducing activity.
On to `CCOP(C)(=S)SCC(=O)NC(C)C(=O)O` (stereo unspecified), for which the inhibition was inactive: -2.37%.
